## Potato spindle tuber viroid, loop 27: variant abundance in plants

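Three N. benthamiana plants were inoculated with the whole mutant pool. Progeny were sequenced from the inoculated region (day 5), the margin of the inoculated leaf (day 10) and systemic leaves (day 12).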

Region: loop 27 of PSTVd (intermediate strain), 5' to 3', with the closing base pair. Wild type: UUUUCA. Varied positions (N): UNNNNA.

Numbers give reads per thousand; 0 = not seen among the reads, higher = more abundant. Each site shows the three plants. "Pool" is the share in the plasmid pool used as inoculum, on the same scale. The inoculated region was read from the minus strand, the other sites from the plus strand. Sequences that differ at fixed positions probably stem from PCR or sequencing errors, and defective variants can be carried along by functional ones. For reference, wild type rose from 39.4 per thousand in the pool to 155, 124, 130 (inoculated region), 823, 907, 920 (leaf margin) and 805, 787, 933 (systemic leaves). With 30,013-65,426 reads a sample, very low values are single reads.

sequence | pool | inoculated region | leaf margin | systemic leaves
AAAACA | 0.0136 | 0 / 0 / 0 | 0 / 0 / 0 | 0 / 0 / 0
AAAAUA | 0.0136 | 0 / 0 / 0 | 0 / 0 / 0 | 0 / 0 / 0
AAACGA | 0.0136 | 0 / 0 / 0 | 0 / 0 / 0 | 0 / 0 / 0
AACUGA | 0.0272 | 0 / 0 / 0.0189 | 0 / 0 / 0 | 0 / 0 / 0
AAGCUA | 0.0136 | 0 / 0 / 0 | 0 / 0 / 0 | 0 / 0 / 0
AAGGAA | 0.0136 | 0 / 0 / 0 | 0 / 0 / 0 | 0 / 0 / 0
AAGUCA | 0.0136 | 0 / 0.0164 / 0 | 0 / 0 / 0 | 0 / 0 / 0
AAUCUA | 0.0136 | 0 / 0 / 0 | 0 / 0 / 0 | 0 / 0 / 0
AAUUUA | 0.0136 | 0 / 0 / 0 | 0 / 0 / 0 | 0 / 0 / 0
ACACAA | 0.0136 | 0 / 0 / 0 | 0 / 0 / 0 | 0 / 0 / 0
ACAUCA | 0.0136 | 0 / 0 / 0 | 0 / 0 / 0 | 0 / 0 / 0
ACGAAA | 0.0136 | 0 / 0 / 0 | 0.0333 / 0 / 0 | 0 / 0 / 0
ACGGAA | 0.0136 | 0 / 0 / 0 | 0 / 0 / 0 | 0 / 0 / 0
ACUGAA | 0.0136 | 0 / 0 / 0 | 0 / 0 / 0 | 0 / 0 / 0
AGAUAA | 0.0136 | 0 / 0 / 0 | 0 / 0 / 0 | 0 / 0 / 0
AGCCAA | 0.0136 | 0 / 0 / 0 | 0 / 0 / 0 | 0 / 0 / 0
AGGGUA | 0.0136 | 0 / 0 / 0 | 0 / 0 / 0 | 0 / 0 / 0
AGUGUA | 0.0136 | 0 / 0 / 0 | 0 / 0 / 0 | 0 / 0 / 0
AUAAAA | 0.0136 | 0 / 0 / 0 | 0 / 0 / 0 | 0 / 0 / 0
AUAUGA | 0.0136 | 0 / 0.0164 / 0 | 0 / 0 / 0 | 0 / 0 / 0
AUAUUA | 0.0136 | 0 / 0 / 0 | 0 / 0 / 0 | 0 / 0 / 0
AUCGGA | 0.0136 | 0 / 0.0164 / 0.0378 | 0 / 0 / 0 | 0 / 0 / 0
AUCUAA | 0.0136 | 0 / 0 / 0.0189 | 0 / 0 / 0 | 0 / 0 / 0
AUCUAC | 0.122 | 0 / 0.0164 / 0 | 0 / 0 / 0 | 0 / 0 / 0
AUGGUA | 0.0136 | 0.0176 / 0 / 0 | 0 / 0 / 0 | 0 / 0 / 0
AUUGAA | 0.0136 | 0 / 0 / 0 | 0 / 0 / 0 | 0 / 0 / 0
AUUUCA | 0.0272 | 0.0529 / 0.0818 / 0.0756 | 0.533 / 0.454 / 0.310 | 0.322 / 0.520 / 0.452
CAAGCA | 0.0136 | 0 / 0 / 0 | 0 / 0 / 0 | 0 / 0 / 0
CAAGGA | 0.163 | 0.0529 / 0.0491 / 0.0567 | 0 / 0 / 0 | 0 / 0 / 0
CAGUUA | 0.0407 | 0 / 0 / 0 | 0 / 0 / 0 | 0 / 0 / 0
CCCACA | 0.0136 | 0 / 0 / 0 | 0 / 0 / 0 | 0 / 0 / 0
CCGCGA | 0.0136 | 0 / 0 / 0 | 0 / 0 / 0 | 0 / 0 / 0
CGAAUA | 0.0136 | 0 / 0 / 0 | 0 / 0 / 0 | 0 / 0 / 0
CUAUAA | 0.0136 | 0 / 0 / 0 | 0 / 0 / 0 | 0 / 0 / 0
CUUCUA | 0.244 | 0.0529 / 0.0327 / 0.0567 | 0 / 0 / 0.233 | 0.0161 / 0 / 0
GAAAAA | 0.0136 | 0 / 0 / 0 | 0 / 0.0302 / 0 | 0 / 0 / 0
GAAUUA | 0.0136 | 0 / 0.0164 / 0 | 0 / 0 / 0 | 0 / 0 / 0
GAGAGA | 0.0136 | 0 / 0 / 0 | 0 / 0 / 0 | 0 / 0 / 0
GAUAAA | 0.0136 | 0 / 0 / 0 | 0 / 0 / 0 | 0 / 0 / 0
GAUCGA | 0.0136 | 0 / 0 / 0 | 0 / 0 / 0 | 0 / 0 / 0
GAUUGA | 0.0136 | 0 / 0 / 0 | 0 / 0 / 0 | 0 / 0 / 0
GCCAGA | 0.0136 | 0 / 0 / 0 | 0 / 0 / 0 | 0 / 0 / 0
GGAUAA | 0.0136 | 0 / 0.0164 / 0 | 0 / 0 / 0 | 0 / 0 / 0
GGCAUA | 0.0136 | 0 / 0 / 0 | 0 / 0 / 0 | 0 / 0 / 0
GGUUAA | 0.0272 | 0 / 0 / 0 | 0 / 0 / 0 | 0 / 0 / 0
GUCGCA | 0.0136 | 0 / 0 / 0 | 0 / 0 / 0 | 0 / 0 / 0
GUCGGA | 0.0136 | 0 / 0 / 0 | 0 / 0 / 0 | 0 / 0 / 0
GUGAUA | 0.272 | 0.0882 / 0.147 / 0.151 | 0.0333 / 0.0302 / 0 | 0 / 0.0153 / 0
GUGCAU | 0.0136 | 0 / 0 / 0 | 0 / 0 / 0 | 0 / 0 / 0
GUGGAA | 0.0136 | 0.0176 / 0 / 0 | 0 / 0 / 0 | 0 / 0 / 0
GUGGUA | 0.0272 | 0.0176 / 0 / 0.0378 | 0 / 0 / 0 | 0 / 0 / 0
GUUAGA | 0.0136 | 0 / 0 / 0 | 0 / 0 / 0 | 0 / 0 / 0
GUUGCA | 0.0136 | 0 / 0 / 0 | 0 / 0 / 0 | 0 / 0 / 0
GUUGCU | 0.598 | 0.0529 / 0.0818 / 0.113 | 0.0333 / 0 / 0 | 0 / 0 / 0
GUUGGA | 0.0136 | 0 / 0 / 0 | 0 / 0 / 0 | 0 / 0 / 0
GUUGUA | 0.0272 | 0.0176 / 0 / 0.0189 | 0 / 0 / 0 | 0 / 0 / 0
GUUUCA | 0.0136 | 0.0176 / 0 / 0.0189 | 0.100 / 0.242 / 0.155 | 0.129 / 0.611 / 0.0984
GUUUGA | 0.0136 | 0.0176 / 0 / 0.0189 | 0 / 0 / 0 | 0 / 0 / 0
GUUUUA | 0.0136 | 0 / 0 / 0 | 0 / 0 / 0 | 0 / 0 / 0
UAAAAA | 9.75 | 7.37 / 8.51 / 8.39 | 2.87 / 0.877 / 0.491 | 0.0965 / 0.138 / 0.0590
UAAACA | 1.86 | 1.55 / 1.65 / 1.83 | 1.07 / 0.212 / 0.103 | 0.0482 / 0 / 0.0197
UAAAGA | 4.10 | 1.90 / 1.78 / 1.98 | 0.100 / 0.302 / 0.0517 | 0.0322 / 0 / 0.0197
UAAAUA | 2.00 | 0.335 / 0.622 / 0.473 | 0.0333 / 0.0605 / 0.155 | 0.0322 / 0.0764 / 0.0197
UAACAA | 5.91 | 4.76 / 5.12 / 4.65 | 1.60 / 0.423 / 0.620 | 0.0643 / 0.138 / 0.216
UAACCA | 2.31 | 0.847 / 0.704 / 0.510 | 0 / 0.0907 / 0.284 | 0.0322 / 0.183 / 0
UAACGA | 2.85 | 0.864 / 1.01 / 1.04 | 0 / 0.0605 / 0 | 0.0322 / 0 / 0
UAACUA | 3.87 | 1.92 / 2.05 / 1.63 | 0.0333 / 0.212 / 0.0775 | 0.0322 / 0.0306 / 0.0787
UAAGAA | 3.00 | 1.89 / 1.57 / 1.80 | 0.0666 / 0.121 / 0.0517 | 0.0643 / 0.0306 / 0.0393
UAAGCA | 3.02 | 1.32 / 1.16 / 1.85 | 0 / 0.0907 / 0.517 | 0.0322 / 0.122 / 0
UAAGGA | 1.28 | 0.353 / 0.311 / 0.340 | 0 / 0.0302 / 0 | 0 / 0.0306 / 0
UAAGUA | 5.08 | 1.83 / 2.45 / 1.74 | 0.100 / 0.151 / 0.543 | 0.0482 / 0.122 / 0.118
UAAUAA | 6.22 | 2.95 / 3.40 / 2.70 | 0.666 / 0.454 / 0.0775 | 0.0804 / 0.138 / 0.157
UAAUCA | 1.53 | 1.52 / 1.72 / 1.98 | 0.366 / 0.272 / 0.129 | 0.0322 / 0.0611 / 0.0787
UAAUGA | 6.32 | 2.35 / 2.70 / 1.87 | 0.167 / 0.423 / 0.930 | 0.0643 / 0.0611 / 0.0787

The last 6 entries again:

| sequence | pool | inoculated region | leaf margin | systemic leaves |
|---|---|---|---|---|
| UAAGCA | 3.02 | 1.32 / 1.16 / 1.85 | 0 / 0.0907 / 0.517 | 0.0322 / 0.122 / 0 |
| UAAGGA | 1.28 | 0.353 / 0.311 / 0.340 | 0 / 0.0302 / 0 | 0 / 0.0306 / 0 |
| UAAGUA | 5.08 | 1.83 / 2.45 / 1.74 | 0.100 / 0.151 / 0.543 | 0.0482 / 0.122 / 0.118 |
| UAAUAA | 6.22 | 2.95 / 3.40 / 2.70 | 0.666 / 0.454 / 0.0775 | 0.0804 / 0.138 / 0.157 |
| UAAUCA | 1.53 | 1.52 / 1.72 / 1.98 | 0.366 / 0.272 / 0.129 | 0.0322 / 0.0611 / 0.0787 |
| UAAUGA | 6.32 | 2.35 / 2.70 / 1.87 | 0.167 / 0.423 / 0.930 | 0.0643 / 0.0611 / 0.0787 |

Source: Wu et al. 2024 (doi:10.1371/journal.ppat.1012142), supplementary data.